In patent US20220081444A1, “6,7-DIHYDRO-4H-PYRAZOLO[1,5-A]PYRAZINE INDOLE-2-CARBOXAMIDES ACTIVE AGAINST THE HEPATITIS B VIRUS (HBV)” (AiCuris GmbH & Co. KG, priority 2018, published 2022):
The structures given here were assigned with low confidence; some may be wrong.

Assays:
HBV = assay: Determination of HBV DNA from the supernatants of HepAD38 cells (anti-HBV activity); settings: read-out: Cell Activity (EC50)

CC(C)(C)OC(=O)N1CCC(C(=O)Nc2cc3n(n2)CCN(C(=O)c2cc4ccccc4[nH]2)C3)CC1
CC50 (HepAD38 cells): > 10 µM
EC50 (HBV): < 1 µM
